Test results from ChEMBL document CHEMBL4296182, “CO-ADD screening of NIH NCI Diversity Set V”.

How the values were obtained:
Assay type in all cases: functional
Conditions in all cases: Concentration 20.0 uM
Staphylococcus aureus = experiment: Antibacterial activity against Staphylococcus aureus MRSA ATCC 43300 (CO-ADD:GP_020); MIC in CAMBH media using NBS plates, by Resazurin F(560/590)
Escherichia coli = experiment: Antibacterial activity against Escherichia coli ATCC 25922 (CO-ADD:GN_001); MIC in CAMBH media using NBS plates, by Resazurin F(560/590)
Acinetobacter baumannii = experiment: Antibacterial activity against Acinetobacter baumannii ATCC 19606 (CO-ADD:GN_034); MIC in CAMBH media using NBS plates, by Resazurin F(560/590)

| Structure (SMILES) | inhibition (Staphylococcus aureus) [%] | inhibition (Escherichia coli) [%] | inhibition (Acinetobacter baumannii) [%] |
| --- | --- | --- | --- |
| CCOC(=O)Nc1ccc([As](=O)(O)O)c(O)c1 | -8.08 | -0.82 |  |
| O=[As](O)(c1ccccc1)c1ccc(O)cc1 | 9.08 | 3.49 | 4.68 |
| CCCOP(=S)(Nc1nc(N)cc(O)n1)OCCC | 9.68 | 8.45 |  |
| O=[As](O)(c1ccc(Cl)cc1)C1CCCCC1O (configuration not stated) | 16.2 | 4.28 | 14.1 |
| Nc1cccc2ccc([As](=O)(O)O)cc12 | -5.17 |  | 12.4 |
| O=[As](O)(c1cccs1)c1cccs1 | 12.7 | 17 | 5.86 |
| O=P1(N(CCCl)CCCl)OCCC2CCCCN21 (configuration not stated) | 6.84 | 7.35 | -9.23 |
| Nc1cccc([As](=O)(O)c2ccccc2)c1 | 10.7 | -0.33 | 8.84 |
| O=C(Nc1cc([As](=O)(O)O)ccc1O)c1ccccc1 | -0.05 | 9.88 |  |
| c1cc(-c2nn[nH]n2)ccc1-c1nn[nH]n1 | 4.9 | -1.52 | 13 |
| CC(=O)Nc1ccc([As](=O)(O)O)cc1 | 2.57 | 0.84 | 12 |
| C[As](=O)(O)c1cccc(C(=O)O)c1 | 17 | 18 | 5.45 |
| Nc1ccc([As](=O)(O)c2ccc([N+](=O)[O-])cc2)cc1 | 4.19 | 9.29 |  |
| O=C(O)c1ccccc1[As](=O)(O)O |  | 3.88 | -6.05 |
| O=C(O)COc1ccc([As](=O)(O)O)cc1[N+](=O)[O-] | -6.06 | 5.36 |  |
| O=C(O)CNc1ccc([As](=O)(O)O)cc1 | 1.94 | -7.75 | 15.6 |
| COc1ccc(O)c2c(=O)c3c(OC)cc4c(c3oc12)[C@@H]1C=CO[C@@H]1O4 | 23.3 | 17.6 | -1.59 |
| Nc1ccc([As](=O)(O)O)c(O)c1 | -0.35 | 8.42 |  |
| Nc1cccc2c([As](=O)(O)O)cccc12 | -4.59 | 15.7 | 22.8 |
| COc1cc(I)ccc1[As](=O)(O)O | 5.35 | 1.31 | 9.97 |
| CCOP(=O)(Nc1ccc(C)cn1)OCC | 1.14 | 7.53 | -9.45 |
| O=[As]1(O)c2ccccc2-c2ccccc21 | 0.14 | -4.58 | 13.4 |
| O=[As](O)(c1cccc(O)c1)c1cccc(O)c1 | 7.27 | -5.83 | 8.02 |
| O=[As](O)(O)c1cccnc1 | -0.56 | 6.79 |  |
| O=[N+]([O-])c1ccc(Nc2ccc(Oc3ccc([N+](=O)[O-])cc3[N+](=O)[O-])cc2)c([N+](=O)[O-])c1 | 25.9 | 13.1 | -4.57 |
| CCOC(=O)Nc1cccc([As](=O)(O)O)c1 |  |  | 11.7 |
